Molecules are shown by their SMILES. The entries are a selection whose mix differs from that of the whole data set. Calls of active or inactive are those of the source. Cut-off read from the data, not from the text of the source: active = normalized absorbance mostly below about 85% (no sharp cut-off); inactive = mostly above about 86%.

In the experiment the test system is Vaccinia virus DNA polymerase (E9) processive complex. The experiment in a line: vaccinia E9 polymerase processive synthesis inhibitors, primary screen, biochemical, absorbance (AID 493162). Conditions: in vitro processive DNA synthesis, absorbance read-out; stronger effect = lower value; concentration not given here.
As for `O=P1(Nc2ccccn2)COc2ccccc2OC1`, the normalized absorbance is inactive: 94.5%.

Turning to `Cc1ccc(C(=O)OC2CN3CCC2CC3)cc1` (stereo not drawn), the normalized absorbance is inactive: 108%.

As for `CC1(C)COP(=S)(N(C2=NCCC2)c2ccccc2)OC1`, the normalized absorbance was inactive: 95.6%.

As for `Cc1cc(C)cc(OP(C)(=O)Nc2ccc(OC(C)C)cc2)c1` (stereo not drawn), the normalized absorbance is inactive: 100%.

In the case of `CC1(C)Nc2ccccc2OP1(=O)c1ccccc1` (stereo not drawn), the normalized absorbance was inactive: 83.7%.

Regarding `COc1cc(-n2cnnn2)ccc1-n1cnnn1`, the normalized absorbance is inactive: 97.8%.

For `Cc1cccc(OCC(=O)OC2CN3CCC2CC3)c1` (stereo not drawn), the normalized absorbance was inactive: 99.8%.

`O=C(OC1CN2CCC1CC2)c1ccc(Cl)cc1` (stereo not drawn): the normalized absorbance is inactive: 101%.

For `O=C(OC1CN2CCC1CC2)C12CC3CC(CC(C3)C1)C2` (stereo not drawn), the normalized absorbance was inactive: 99.1%.

`CN(C)P1(=O)Nc2ccccc2S1` (stereo not drawn): the normalized absorbance was inactive: 101%.

Take `CC1=Nc2ccc(C(F)(F)F)cc2C1(C)C`: the normalized absorbance is inactive: 97%.

As for `O=C(O)CCC(=O)N=S(c1ccccc1)c1ccccc1.O=[N+]([O-])c1cc([N+](=O)[O-])c(O)c([N+](=O)[O-])c1`, the normalized absorbance is inactive: 92%.

`CCn1cccc/c1=N\P1(=S)OCCO1`: the normalized absorbance is inactive: 99.8%.

Consider `CCc1nc2c(n1)c1c(non1O)c1c2no[n+]1[O-]`, for which the normalized absorbance is inactive: 100%.

For the compound `CP(=O)(Nc1ccc(Cl)cc1)Oc1ccc(F)cc1` (stereo not drawn), the normalized absorbance was inactive: 100%.

As to `CN(C(=O)Cc1ccc(Cl)c(Cl)c1)[C@H]1CCCC[C@@H]1N1CCCC1`, the normalized absorbance is inactive: 100%.

Turning to `CCOP(=Nc1nc2ccccc2n2nnnc12)(OCC)OCC`, the normalized absorbance was inactive: 100%.

Turning to `CP(=O)(Nc1ccccn1)Oc1ccccc1` (stereo not drawn), the normalized absorbance is inactive: 100%.

Take `O=P1(Nc2nc3ccc(Cl)cc3s2)COc2ccccc2O1` (stereo not drawn): the normalized absorbance is inactive: 85.4%.

For `O=C(OC1/C(=C/c2ccccc2F)N2CCC1CC2)c1ccccc1` (stereo not drawn), the normalized absorbance was inactive: 107%.

For the compound `COc1cc2c(cc1NP(C)(=O)Oc1ccccc1)oc1ccccc12` (stereo not drawn), the normalized absorbance was inactive: 100%.

`CC(=O)OC1(C#N)CN2CCC1CC2` (stereo not drawn): the normalized absorbance is inactive: 97.9%.

For `CC(=O)OC1CN2CCC1C(c1ccccc1)C2` (stereo not drawn), the normalized absorbance was inactive: 106%.
